# System: keratinocytes
# Experiment: Viability and GFP expression after RNA transfection (flow cytometry)
# Conditions: media supplementation with B18R
substance,measurement,value
B18R,cellular viability following RNA transfection,further increased

# From patent publication US10344265B2, “Sustained polypeptide expression from synthetic, modified RNAs and uses thereof” (Children's Medical Center Corporation, priority 2010, dated 2019)
